From patent US7811577B2 (priority 2004, dated 2010) come the findings set out here.

Series [1] deals with D5 IgG binding to biotinylated 5-Helix. Nature of the series: Biotinylated 5-Helix/D5 IgG interaction (competition) assay, AlphaScreen. A general note: Bead proximity is the source of the signal in Alpha formats.
In series [2] the test system is D5-IgG binding to biotinylated IQN17. Nature of the series: Competition of D5-IgG binding to biotinylated IQN17, AlphaScreen.
The nature of series [3]: Thermal denaturation (CD) in 2M guanidinium chloride. To be noted: in the presence of 2M guanidinium chloride.

As for “CCGGIKKEIEAIKKEQEAIKKKIEAIEKLLQLTVWGIKALAAAIA [CCIZN17Ala4]”, the “D5 IgG binding in bio-5-Helix/D5 IgG interaction assay, in words” value (“D5 IgG binding” below) in series [1] is reported as “bind D5 IgG but precise IC50s could not be determined”.
With “IKKEIEAIKKEQEAIKKKIEAIEKLLQLTaWGIKQLQARIL (Ac-IKKEIEAIKKEQEAIKKKIEAIEKLLQLTAWGIKQLQARIL-NH2) [IZN17A6]”, the “competition of D5-IgG binding to biotinylated IQN17, in words” value in series [2] is “compete for D5 binding less effectively than wildtype IZN17 peptide”.
As to “S10N17: SEQ ID NO:101; minimized SZ scaffold fused to N17 (IEKKIEAIEKLLQLTVWGIKQLQARIL)”, the “melting temperature / midpoint of thermal denaturation” value in series [3] was “about 60 °C”.
On to “CCGGIKKKIEAIEKLLQLTVWGIKQLQARIL [CCI10N17]”, for which the “D5 IgG binding” value in series [1] is “comparable or superior potency to IZN17 and CCIZN17”.
For the substance “IKKKIEAIEKLLQLTVWGIKQLQARILGGCC [I10N17CC]”, the “D5 IgG binding” value in series [1] was “comparable or superior potency to IZN17 and CCIZN17”.
